# Source: patent USRE37781E1, “Substituted cyclic carbonyls and derivatives thereof useful as retroviral protease inhibitors” (DuPont Pharmaceuticals Company, priority 1991, dated 2002)
# Target: single-chain tethered dimer of HIV protease (Human immunodeficiency virus 1, UniProt P04585)
# Settings: read-out: HPLC K1; Table 2d; class symbols
row,SMILES,Ki
1,CNS(=O)(=O)OCCCCCCN1C(=O)N(CCCCCCO)[C@H](Cc2ccccc2)[C@H](O)[C@@H](O)[C@H]1Cc1ccccc1,10 to 1000 nM
2,CC(O)CCCCN1C(=O)N(Cc2ccc3ccccc3c2)[C@H](Cc2ccccc2)[C@H](O)[C@@H](O)[C@H]1Cc1ccccc1 (stereo partly drawn),< 10 nM
3,O=C(NC12CC3CC(CC(C3)C1)C2)Oc1cccc(CN2C(=O)N(Cc3cccc(O)c3)[C@H](Cc3ccccc3)[C@H](O)[C@@H](O)[C@H]2Cc2ccccc2)c1,10 to 1000 nM
4,O=C(O)c1cccc(CN2C(=O)N[C@H](Cc3ccccc3)[C@H](O)[C@@H](O)[C@H]2Cc2ccccc2)c1,< 10 nM
5,O=C1N(Cc2cccc(B(O)O)c2)[C@H](Cc2ccccc2)[C@H](O)[C@@H](O)[C@@H](Cc2ccccc2)N1Cc1cccc(B(O)O)c1,< 10 nM
6,NC(=O)NN=Cc1cccc(CN2C(=O)N(Cc3cccc(C=NNC(N)=O)c3)[C@H](Cc3ccccc3)[C@H](O)[C@@H](O)[C@H]2Cc2ccccc2)c1,< 10 nM
7,O=C1N(Cc2ccc(O)cc2)[C@H](Cc2ccccc2)[C@H](O)[C@@H](O)[C@@H](Cc2ccccc2)N1Cc1ccc(O)c(CO)c1,< 10 nM
8,NC(=O)Nc1cccc(CN2C(=O)N(Cc3cccc(NC(N)=O)c3)[C@H](Cc3ccccc3)[C@H](O)[C@@H](O)[C@H]2Cc2ccccc2)c1,< 10 nM
9,CS(=O)(=O)c1cccc(CN2C(=O)N(Cc3cccc(S(C)(=O)=O)c3)[C@H](Cc3ccccc3)[C@H](O)[C@@H](O)[C@H]2Cc2ccccc2)c1,< 10 nM

# Same assay, conditions: read-out: HPLC K1; Table 2d; class symbols; tested form: HCl
row,SMILES,Ki
1,CN(C)CC(=O)Nc1cccc(CN2C(=O)N(Cc3ccc(CO)cc3)[C@H](Cc3ccccc3)[C@H](O)[C@@H](O)[C@H]2Cc2ccccc2)c1,< 10 nM

# Same assay, conditions: read-out: HPLC K1; Table 2d; class symbols; tested form: acetate
row,SMILES,Ki
1,N=C(N)c1cccc(CN2C(=O)N(Cc3cccc(C(N)=O)c3)[C@H](Cc3ccccc3)[C@H](O)[C@@H](O)[C@H]2Cc2ccccc2)c1,< 10 nM

# Same assay, conditions: read-out: HPLC Ki; Table 2i
row,SMILES,Ki
1,Cc1nc(-c2cccc(CN3C(=O)N(Cc4cccc(-c5noc(C)n5)c4)[C@H](Cc4ccccc4)[C@H](O)[C@@H](O)[C@H]3Cc3ccccc3)c2)no1,< 10 nM
2,O=C1N(Cc2ccccc2)[C@H](Cc2ccc(OCCN3CCOCC3)cc2)[C@H](O)[C@@H](O)[C@@H](Cc2ccc(OCCN3CCOCC3)cc2)N1Cc1ccccc1,< 10 nM
3,O=C1N(Cc2ccc(CF)cc2)[C@H](Cc2ccccc2)[C@H](O)[C@@H](O)[C@@H](Cc2ccccc2)N1Cc1ccc(CF)cc1,< 10 nM

# Same assay, conditions: read-out: HPLC Ki; Table 2m
row,SMILES,Ki
1,O=S1(=O)N(CCCCCCO)[C@H](Cc2ccccc2)[C@H](O)[C@@H](O)[C@@H](Cc2ccccc2)N1CCCCCCO,< 10 nM
2,O=S1(=O)N(CCCCCO)[C@H](Cc2ccccc2)[C@H](O)[C@@H](O)[C@@H](Cc2ccccc2)N1CCCCCO,< 10 nM
3,CN(C)CC(=O)Nc1cccc(CN2[C@H](Cc3ccccc3)[C@H](O)[C@@H](O)[C@@H](Cc3ccccc3)N(Cc3cccc(NC(=O)CN(C)C)c3)S2(=O)=O)c1,< 10 nM
4,Nc1nc(-c2cccc(CN3[C@H](Cc4ccccc4)[C@H](O)[C@@H](O)[C@@H](Cc4ccccc4)N(Cc4cccc(-c5csc(N)n5)c4)S3(=O)=O)c2)cs1,< 10 nM

# Same assay, conditions: read-out: HPLC Ki; Table 2q
row,SMILES,Ki
1,NC(=NO)c1cc(CN2C(=S)N(Cc3ccc(F)c(C(N)=NO)c3)[C@H](Cc3ccccc3)[C@H](O)[C@@H](O)[C@H]2Cc2ccccc2)ccc1F,< 10 nM
2,OCc1ccc(CN2C(=S)N(Cc3ccc(CO)cc3)[C@H](Cc3ccccc3)[C@H](O)[C@@H](O)[C@H]2Cc2ccccc2)cc1,< 10 nM

# Same assay, conditions: read-out: HPLC Ki; Table 1d, lower part
row,SMILES,Ki
1,O=C1N(Cc2cccc(CO)c2)[C@H](Cc2ccccc2)C[C@@H](O)[C@@H](Cc2ccccc2)N1Cc1cccc(CO)c1,< 10 nM
2,O=C1N(Cc2ccc3ccccc3c2)C(Cc2ccccc2)CC(OCO)C(Cc2ccccc2)N1Cc1ccc2ccccc2c1 (stereo not drawn),< 10 nM
3,COC(=O)c1cccc(CN2C(=O)N(Cc3cccc(C(=O)OC)c3)[C@H](Cc3ccccc3)[C@H](O)C[C@H]2Cc2ccccc2)c1,10 to 1000 nM

# Same assay, conditions: read-out: K4 HPLC; Table 2e
row,SMILES,Ki
1,O=C1N(Cc2ccccc2)[C@H](Cc2cn(Cc3ccccc3)c3ccccc23)[C@H](O)[C@@H](O)[C@@H](Cc2cn(Cc3ccccc3)c3ccccc23)N1Cc1ccccc1,10 to 1000 nM

# System: HIV-1 (RF) in MT-2 cells
# Settings: Table 2i
row,SMILES,IC90
1,Cc1nc(-c2cccc(CN3C(=O)N(Cc4cccc(-c5noc(C)n5)c4)[C@H](Cc4ccccc4)[C@H](O)[C@@H](O)[C@H]3Cc3ccccc3)c2)no1,+++ (+++=<10 μg/mL)
2,O=C1N(Cc2ccc(CF)cc2)[C@H](Cc2ccccc2)[C@H](O)[C@@H](O)[C@@H](Cc2ccccc2)N1Cc1ccc(CF)cc1,+++ (+++=<10 μg/mL)

# Same assay, conditions: Table 2m
row,SMILES,IC90
1,O=S1(=O)N(CCCCCCO)[C@H](Cc2ccccc2)[C@H](O)[C@@H](O)[C@@H](Cc2ccccc2)N1CCCCCCO,+++ (+++=<10 μg/mL)
2,O=S1(=O)N(CCCCCO)[C@H](Cc2ccccc2)[C@H](O)[C@@H](O)[C@@H](Cc2ccccc2)N1CCCCCO,+++ (+++=<10 μg/mL)
3,CN(C)CC(=O)Nc1cccc(CN2[C@H](Cc3ccccc3)[C@H](O)[C@@H](O)[C@@H](Cc3ccccc3)N(Cc3cccc(NC(=O)CN(C)C)c3)S2(=O)=O)c1,+++ (+++=<10 μg/mL)
4,Nc1nc(-c2cccc(CN3[C@H](Cc4ccccc4)[C@H](O)[C@@H](O)[C@@H](Cc4ccccc4)N(Cc4cccc(-c5csc(N)n5)c4)S3(=O)=O)c2)cs1,+++ (+++=<10 μg/mL)

# Same assay, conditions: Table 2q
row,SMILES,IC90
1,NC(=NO)c1cc(CN2C(=S)N(Cc3ccc(F)c(C(N)=NO)c3)[C@H](Cc3ccccc3)[C@H](O)[C@@H](O)[C@H]2Cc2ccccc2)ccc1F,+++ (+++=<10 μg/mL)
2,OCc1ccc(CN2C(=S)N(Cc3ccc(CO)cc3)[C@H](Cc3ccccc3)[C@H](O)[C@@H](O)[C@H]2Cc2ccccc2)cc1,+++ (+++=<10 μg/mL)

# Same assay, conditions: Table 1d, lower part
row,SMILES,Mass Spec M + H (class symbols printed in this column)
1,O=C1N(Cc2cccc(CO)c2)[C@H](Cc2ccccc2)C[C@@H](O)[C@@H](Cc2ccccc2)N1Cc1cccc(CO)c1,+++ (+++=<10 μg/mL)
2,COC(=O)c1cccc(CN2C(=O)N(Cc3cccc(C(=O)OC)c3)[C@H](Cc3ccccc3)[C@H](O)C[C@H]2Cc2ccccc2)c1,+++ (+++=<10 μg/mL)

# Same assay, conditions: Table 2d; class symbols
row,SMILES,IC90
1,CNS(=O)(=O)OCCCCCCN1C(=O)N(CCCCCCO)[C@H](Cc2ccccc2)[C@H](O)[C@@H](O)[C@H]1Cc1ccccc1,+++ (+++=<10 μg/mL)
2,CC(O)CCCCN1C(=O)N(Cc2ccc3ccccc3c2)[C@H](Cc2ccccc2)[C@H](O)[C@@H](O)[C@H]1Cc1ccccc1 (stereo partly drawn),+++ (+++=<10 μg/mL)
3,O=C(NC12CC3CC(CC(C3)C1)C2)Oc1cccc(CN2C(=O)N(Cc3cccc(O)c3)[C@H](Cc3ccccc3)[C@H](O)[C@@H](O)[C@H]2Cc2ccccc2)c1,+++ (+++=<10 μg/mL)
4,O=C(O)c1cccc(CN2C(=O)N[C@H](Cc3ccccc3)[C@H](O)[C@@H](O)[C@H]2Cc2ccccc2)c1,+ (+=>100 μg/mL)
5,O=C1N(Cc2cccc(B(O)O)c2)[C@H](Cc2ccccc2)[C@H](O)[C@@H](O)[C@@H](Cc2ccccc2)N1Cc1cccc(B(O)O)c1,+++ (+++=<10 μg/mL)
6,NC(=O)NN=Cc1cccc(CN2C(=O)N(Cc3cccc(C=NNC(N)=O)c3)[C@H](Cc3ccccc3)[C@H](O)[C@@H](O)[C@H]2Cc2ccccc2)c1,+++ (+++=<10 μg/mL)
7,O=C1N(Cc2ccc(O)cc2)[C@H](Cc2ccccc2)[C@H](O)[C@@H](O)[C@@H](Cc2ccccc2)N1Cc1ccc(O)c(CO)c1,++ (++=10 to 100 μg/mL)
8,NC(=O)Nc1cccc(CN2C(=O)N(Cc3cccc(NC(N)=O)c3)[C@H](Cc3ccccc3)[C@H](O)[C@@H](O)[C@H]2Cc2ccccc2)c1,+++ (+++=<10 μg/mL)
9,CS(=O)(=O)c1cccc(CN2C(=O)N(Cc3cccc(S(C)(=O)=O)c3)[C@H](Cc3ccccc3)[C@H](O)[C@@H](O)[C@H]2Cc2ccccc2)c1,+++ (+++=<10 μg/mL)

# Same assay, conditions: Table 2d; class symbols; tested form: HCl
row,SMILES,IC90
1,CN(C)CC(=O)Nc1cccc(CN2C(=O)N(Cc3ccc(CO)cc3)[C@H](Cc3ccccc3)[C@H](O)[C@@H](O)[C@H]2Cc2ccccc2)c1,+++ (+++=<10 μg/mL)

# Same assay, conditions: Table 2d; class symbols; tested form: acetate
row,SMILES,IC90
1,N=C(N)c1cccc(CN2C(=O)N(Cc3cccc(C(N)=O)c3)[C@H](Cc3ccccc3)[C@H](O)[C@@H](O)[C@H]2Cc2ccccc2)c1,+++ (+++=<10 μg/mL)
